Tested on: IFN-gamma
Experiment: In vitro IFN-gamma production of patient PBMC with immunomodulators
Format: cell-based, human
Protocol: Activation of HIV-specific T-cells in vitro. PBMC were plated into flat-bottom 96-microtiter plates (Costar, N.Y.) at 1 million cells/well in 200 ul complete RPMI 1640 medium containing 10 ug antigen and 10 lU/well recombinant human IL-2 (rhIL-2). (Increasing the concentration of IL-2 (up to 500 U/ml) is OK, especially less antigen gives same results when IFN-gamma assayed.) Control PBMC are plated in medium containing 10 IU/well rhIL-2 without antigen. Cells are then cultured for 18 hours. Brefeldin A (Sigma, USA) is added at 2 ug/ml and the cells are incubated for another 3 hours and then collected for intracellular staining.
IFN-gamma assay. Cells were collected and aliquoted to 0.5 million cells for FACS assay. After washing twice with 1 ml PBS containing 1% BSA, cells were resuspended in 40 ul PBS/1% BSA and stained with CD8, CD4, CD3, and CD45RO antibodies for 30 minutes on ice. After washing, cells were fixed and permeabilized with 0.5 ml Fix/Per solution (containing 4% paraformaldehyde and 0.2% saponin in PBS, pH7.4) for 15 minutes on ice. […] After intracellular staining cells were washed twice with 1 ml 1×Per buffer, resuspended in 0.5 ml 1% paraformaldehyde PBS buffer and analyzed on FACS (Coulter). […]

IL-2: recombinant human IL-2, Th1 activating cytokine
CD3+ T cells responses (IFN responses inhibited by IL-10 (FIG. 15, lower panel)): doubled
HIV-specific Th1 responses (independently from the amount of IL-10): significantly increases

Reference: patent US20030095988A1, “Method of inducing autovaccination against HIV infection using structured treatment interruptions” (priority 2000, published 2003)
